Results deposited as PubChem BioAssay AID1259414 (Drosophila RNAi Screening Center, 2018).
The screen tested about 24,000 reagents; this is a random part of those that have a named target and a result. Over the whole deposit, about 1,210 (5%) got an active call. 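Inactive calls also include excluded dsRNAs with several or no targets, genes unexpressed in JW18, and well A1, regardless of score.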 Reagents against one gene are numbered here.

- Purpose: 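Fly genes that alter Wolbachia amount inside host cells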 (primary screen)
- Cell system: Drosophila JW18 cells infected with Wolbachia
- Reagent: long dsRNA against Drosophila genes, 0.25 µg dsRNA per well of a 384-well plate
- Duration: 5 days
- Conditions: cells persistently infected with Wolbachia before knock-down; no added drug
- Read-out: 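Imaged fluorescence in situ signal for Wolbachia 23S rRNA per DAPI-counted host cell, given as a robust z-score within each plate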
- Direction: Wolbachia per cell robust z: higher = more Wolbachia per host cell than the plate typical
- Call rule: 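Hit when robust z is 1.5 or more, or -1.5 or less, in at least two of three replicates; excludes dsRNAs with several or no targets, genes not expressed in JW18 and well A1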

predicted target	reagent	Wolbachia per cell robust z, rep 1	Wolbachia per cell robust z, rep 2	Wolbachia per cell robust z, rep 3	activity call
CG7264	1	0.000715	0.767	0.387	inactive
CG7264	2	0.842	0.872	0.0549	inactive
mRpS31	1	-0.0224	-0.48	-0.0868	inactive
CG11693	1	0.338	0.959	0.835	inactive
CG11693	2	-1.25	-0.37	0.192	inactive
Cpr12A	1	-2.98	-4.94	-0.335	inactive
BaraB	1	-0.994	-2.07	-1	inactive
gny	1	-0.641	-5.35	0.0768	inactive
CG3788	1	0.656	-3.65	1.61	inactive
CG3788	2	1.34	-0.0784	0.123	inactive
Ptip	1	-0.798	0.13	-0.359	inactive
Ptip	2	1.17	0.258	0.351	inactive
CG17919	1	-1.84	-6.54	-1.17	active
CG17919	2	0.0639	0.625	0.709	inactive
CG9286	1	0.234	0.34	-2.24	inactive
CG9286	2	-1.43	-0.314	-0.503	inactive
CG33229	1	-0.185	1.15	-7.76	inactive
CG33229	2	0.897	0.88	0.69	inactive

2 entries from above, sorted by “Wolbachia per cell robust z, rep 2”, descending:
predicted target	reagent	Wolbachia per cell robust z, rep 1	Wolbachia per cell robust z, rep 2	Wolbachia per cell robust z, rep 3	activity call
CG3788	2	1.34	-0.0784	0.123	inactive
CG3788	1	0.656	-3.65	1.61	inactive

Next results follow:
predicted target	reagent	Wolbachia per cell robust z, rep 1	Wolbachia per cell robust z, rep 2	Wolbachia per cell robust z, rep 3	activity call
CG18537	1	-1.46	-0.0882	0.712	inactive
CG18537	2	0.0791	-1	-0.616	inactive
aPKC	1	-0.936	0.474	0.461	inactive
aPKC	2	-2.12	-3.08	1.03	active
aPKC	3	0.0277	-0.113	0.263	inactive
aPKC	4	-0.942	-0.388	0.165	inactive
Nacalpha	1	0.487	0.258	1.58	inactive
Nacalpha	2	-2.26	0.628	0.301	inactive
CG13284	1	0.415	0.265	-1.39	inactive
CG12723	1	1.12	-2.17	0.569	inactive
CG12723	2	-1.11	0.666	0.961	inactive
